Pooled drug test results. Numbers come from NIAID ChemDB, via PubChem.

Common to all: tests in culture; agent: HIV-2; method: cytopathic effect; measure: EC50

ECn is the concentration giving n% inhibition of infection, replication or growth.

compound,cell line,strain,result
CCN(C)C(=O)c1cnnn1C1OC(CO[Si](C)(C)C(C)(C)C)C2(OS(=O)(=O)C=C2N)C1O[Si](C)(C)C(C)(C)C,MT-4,ROD,>250 µM
Nc1nc(N)c2ncn(CC(OCCF)OCP(=O)(O)O)c2n1,CEM,-,40 µg/mL
CN(C)C(=O)c1cnnn1[C@@H]1O[C@H](CO[Si](C)(C)C(C)(C)C)C2(OS(=O)(=O)C=C2N)[C@H]1O[Si](C)(C)C(C)(C)C,CEM,ROD,>7 µM
Cc1ccnc2c1NC(=O)c1cccnc1N2C1CC1,MT-4,ROD,>97.6 µM
O=C1CSC(c2c(F)cccc2Cl)N1Cc1ccco1,MT-4,ROD,30.5 µM
CC(C)(C)[Si](C)(C)OCC1OC(n2nncc2C(=O)NC2CCCC2)C(O[Si](C)(C)C(C)(C)C)C12OS(=O)(=O)C=C2N,MT-4,ROD,>250 µM
CCCCCCCSc1nsc(NC(=O)Nc2ccccc2)n1,MT-4,ROD,29.8 µM
Cc1nc(N2C(=O)CSC2c2c(Cl)cccc2Cl)ccc1Br,MT-4,ROD,9.74 µM
CCNC(=O)c1cnnn1C1OC(CO[Si](C)(C)C(C)(C)C)C2(OS(=O)(=O)C=C2N)C1O[Si](C)(C)C(C)(C)C,MT-4,ROD,>250 µM
COc1nc(=O)[nH]c2c1C(c1ccc(Br)cc1)c1c(OC)nc(=O)[nH]c1O2,MT-4,ROD,>309 µM
O=C(O)c1cc(C(O)(c2ccc(O)c(C(=O)O)c2)c2ccc(O)c(C(=O)O)c2)ccc1O,MT-4,-,34 µM
COc1cc(OC)c(C2SCC(=O)N2c2cccc(C)n2)c(OC)c1,MT-4,ROD,62.4 µM
O=c1[nH]c2c(c(=O)[nH]1)C(c1ccccc1)c1c([nH]c(=O)[nH]c1=O)O2,MT-4,ROD,>383 µM
CN(C)c1ccc(C2SCC(=O)N2c2ccccn2)cc1,MT-4,ROD,81.5 µM
COC(=O)c1cc(C(O)(c2ccc(O)c(C(=O)OC)c2)c2ccc(O)c(C(=O)OC)c2)ccc1O,MT-4,-,>200 µM
CSc1nc2c(c(=O)[nH]1)C(c1ccc([N+](=O)[O-])cc1)c1c(nc(SC)[nH]c1=O)O2,MT-4,ROD,>188.9 µM

A second listing of 2 rows from above:

compound | cell line | strain | result
CC(C)(C)[Si](C)(C)OCC1OC(n2nncc2C(=O)NC2CCCC2)C(O[Si](C)(C)C(C)(C)C)C12OS(=O)(=O)C=C2N | MT-4 | ROD | >250 µM
COC(=O)c1cc(C(O)(c2ccc(O)c(C(=O)OC)c2)c2ccc(O)c(C(=O)OC)c2)ccc1O | MT-4 | - | >200 µM

An empty or dashed field is not shown. Lines come from different laboratories, so protocols vary.